Measured values from several laboratories, pooled; numbers as filed in NIAID ChemDB.

Common to all: tests in culture; agent: Vaccinia virus

ECn: concentration that inhibits the pathogen or its effect by n%. An empty or dashed field is not shown. Lines come from different laboratories, so protocols vary.

SMILES,measure,strain or isolate,cells,result
COC(=O)[C@]1(C)CCC[C@]2(C)c3cc(Br)c4nc[nH]c4c3CCC12,EC50,-,E6SM,>4 µg/mL
O=c1ccn([C@@H]2C[C@H](CO)C[C@H]2CO)c(=O)[nH]1,EC50,-,E6SM,>100 µg/mL
Nc1ncnc2c1ncn2[C@H]1OC[C@@H](CO)C1O,EC50,-,E6SM,240 µg/mL
OC[C@H]1CC(n2cnc3c(NC4CC4)ncnc32)C[C@@H]1CO,EC50,-,E6SM,>100 µg/mL
OC[C@H]1O[C@@H](c2ccccc2)C[C@@H]1O,EC50,-,E6SM,>400 µg/mL
Nc1nc(=O)c(/C=C/Br)cn1[C@H]1C[C@H](O)[C@@H](CO)O1,EC50,-,PRK,>400 µg/mL
CC1(C)[C@@H](CO)CC[C@@]1(C)Cn1nnc2c(=O)[nH]cnc21,EC50,-,E6SM,>400 µg/mL
O=c1[nH]c(=O)n([C@H]2C[C@H](O)[C@@H](CO)O2)cc1-c1cc(-c2ccccc2)no1,EC50,-,E6SM,>40 µg/mL
OC[C@H]1O[C@@H](n2cnc3c(Cl)nc(C#CCF)nc32)[C@H](O)[C@@H]1O,EC50,-,HFF,>20 µg/mL
Nc1nccc2c1ncn2[C@@H]1O[C@H](CO)[C@@H](O)[C@H]1O,EC50,-,VERO,14 µM
CC1(C)[C@@H](CO)CC[C@@]1(C)Cn1cnc2c(N)ncnc21,EC50,-,E6SM,>400 µg/mL
CC=NC(=N)c1nc(-c2cccc(OC)c2)n(COCCO)n1,EC50,-,E6SM,150 µg/mL
OC[C@H]1O[C@@H](n2nnc3ccnc(Cl)c32)[C@H](O)[C@@H]1O,EC50,-,VERO,>370 µM
COC(=O)[C@]1(C)CCC[C@]2(C)c3ccc4[nH]c(C(F)(F)F)nc4c3CCC12,EC50,-,E6SM,>4 µg/mL
Cc1cn(CCCC(O)CF)c(=O)[nH]c1=O,EC50,-,ESM,>400 µg/mL
OC[C@H]1O[C@@H](c2cc(C#CBr)c(F)cc2F)C[C@@H]1O,EC50,-,E6SM,>400 µg/mL
Nc1nc2c(ncn2COC(CO)CO)c(=O)[nH]1,EC50,P71,HeLa,>400 µg/mL
Nc1ncnc2c1ncn2C[C@H](O)CO,EC50,-,PRK,50 µg/mL
CCOC(=O)c1ccc(OCCCCc2cc(C=O)n(C)c2)cc1,EC50,-,VERO,>55 µM
CCc1cn([C@H]2C[C@H](O)[C@@H](COP(=O)(O)O)O2)c(=O)[nH]c1=O,EC50,-,HSF,2 µg/mL
Cc1cn([C@H]2C[C@H]([N+](=O)[O-])[C@@H](CO)O2)c(=O)[nH]c1=O,EC50,-,E6SM,>200 µg/mL
OC[C@H]1O[C@@H](c2cc(/C=C/Br)c(F)cc2F)C[C@@H]1O,EC50,-,E6SM,>400 µg/mL
Nc1nccc2nn([C@@H]3O[C@H](CO)[C@@H](O)[C@H]3O)nc12,EC50,-,VERO,>398 µM
NC(=O)c1cncc([C@@H]2O[C@H](CO)[C@H](O)[C@@H]2O)c1,EC50,-,E6SM,≥100 µg/mL
Nc1ncnc2c1ncn2[C@H]1[C@H](O)[C@H](F)[C@@H](CO)[C@@H]1O,EC50,-,HEP-2,63 µM
Nc1nc2c(ncn2CC(CO)OCP(=O)(O)O)c(=O)[nH]1,EC50,-,VERO,0.8 µM
COC(=O)[C@]1(C)CCC[C@]2(C)c3cc(Br)c4nc(C(F)(F)F)[nH]c4c3CCC12,EC50,-,E6SM,>4 µg/mL
O=c1ccn([C@@H]2O[C@H](CO)[C@](O)(C(F)(F)F)[C@H]2O)c(=O)[nH]1,EC50,-,E6SM,>400 µg/mL
Cc1cn([C@@H]2OC[C@H](CO)[C@H]2O)c(=O)[nH]c1=O,EC50,-,E6SM,>400 µg/mL
Cc1cn([C@@H]2O[C@H](CO)[C@](O)(C(F)(F)F)[C@H]2O)c(=O)[nH]c1=O,EC50,-,E6SM,>400 µg/mL
CCSc1ncnc2c1ncn2[C@@H]1OC2COP(=O)(O)OC2[C@H]1O,MIC,-,-,1000 µg/mL
C#Cc1nc2c(ncn2[C@@H]2O[C@H](CO)[C@@H](O)[C@H]2O)c(=O)[nH]1,EC50,-,HFF,>20 µg/mL
OC[C@H]1O[C@@H](c2cncc(Br)c2)[C@@H](O)[C@@H]1O,EC50,-,E6SM,≥100 µg/mL
C=C(N=CC)c1nc(-c2ccccc2)n(C2O[C@H](CO)[C@@H](O)[C@H](O)[C@H]2O)n1,EC50,-,E6SM,>200 µg/mL
O=c1[nH]c(=O)n([C@H]2C[C@H](O)[C@@H](CO)O2)cc1Cc1ccccc1,EC50,-,HSF,600 µM
OC[C@H]1O[C@@H](n2nc3ccnc(Cl)c3n2)[C@H](O)[C@@H]1O,EC50,-,VERO,>398 µM
CC1(C)[C@@H](CO)CC[C@@]1(C)Cn1cc(Br)c(=O)[nH]c1=O,EC50,-,E6SM,>400 µg/mL
NC(=S)c1cncc([C@@H]2O[C@H](CO)[C@@H](O)[C@@H]2O)c1,EC50,-,E6SM,≥100 µg/mL
Cc1cn([C@@H]2OC[C@H](CO)[C@H]2N=[N+]=[N-])c(=O)[nH]c1=O,EC50,-,E6SM,>80 µg/mL
CC(Sc1ncnc2c1cnn2COCCO)C(N)=O,EC50,-,E6SM,>400 µg/mL
NC(=S)c1cncc([C@H]2O[C@H](CO)[C@@H](O)[C@@H]2O)c1,EC50,-,E6SM,≥100 µg/mL
Cc1cn([C@H]2C[C@H](N=[N+]=[N-])[C@@H]([C@@H](C)O)O2)c(=O)[nH]c1=O,EC50,-,-,300 µg/mL
C=C(N=CC)c1nc(-c2cccc(C)c2)n(C2O[C@H](CO)[C@@H](O)[C@H](O)[C@H]2O)n1,EC50,-,E6SM,300 µg/mL
O=c1[nH]c(=O)n(C2C[C@H](CO)[C@@H](CO)C2)cc1I,EC50,-,E6SM,>100 µg/mL
Nc1nccc2c1ncn2[C@@H]1C[C@H](CO)[C@@H](O)[C@H]1O,EC50,-,E6SM,1 µg/mL
NC(=O)c1cncc([C@H]2O[C@H](CO)[C@H](O)[C@@H]2O)c1,EC50,-,E6SM,≥100 µg/mL
Cc1nnc2nc3c(nn12)c1ccccc1n3C,EC50,WR,BSC-1,<60 µg/mL
CC=NC(=N)c1nc(-c2ccccc2)n(C/C=C/c2ccccc2)n1,EC50,-,E6SM,>4 µg/mL
Nc1nc2c(ncn2COCCO)c(=O)[nH]1,EC50,-,PRK,70 µg/mL
N#Cc1cncc([C@@H]2O[C@H](CO)[C@H](O)[C@@H]2O)c1,EC50,-,E6SM,≥100 µg/mL
Nc1ncnc2c1ccn2[C@@H]1C[C@H](O)[C@@H](O)[C@H]1O,EC50,-,E6SM,0.04 µg/mL
Nc1nc2c(ncn2CCCC(O)CF)c(=O)[nH]1,EC50,-,ESM,>400 µg/mL
O=c1[nH]c(=O)n([C@H]2C[C@H](O)[C@@H](CO)O2)cc1/C=C/Br,EC50,-,PRK,20 µg/mL
CC=NC(=N)c1nc(-c2ccc(OC)cc2)n(Cc2ccccc2)n1,EC50,-,E6SM,>40 µg/mL
CCCCCOC(=O)C(O)Cn1cnc2c(N)ncnc21,EC50,-,Primary rabbit kidney cells,85 µg/mL
CC(Sc1ncnc2c1cnn2CCCCO)C(N)=O,EC50,-,E6SM,>400 µg/mL
NC(=O)c1cncc([C@@H]2O[C@H](CO)[C@@H](O)[C@@H]2O)c1,EC50,-,E6SM,≥100 µg/mL
CC=NC(=N)c1nc(-c2ccc(OC)cc2)n(C/C=C/c2ccccc2)n1,EC50,-,E6SM,>10 µg/mL
OC[C@H]1O[C@@H](c2ccccc2)[C@H](O)[C@@H]1O,EC50,-,E6SM,>400 µg/mL
Cn1cc(C(=O)NCc2ccc(Cl)cc2)c(=O)c2cc(CN3CCOCC3)ccc21,EC50,-,HFF,76.2 µM
Clc1ccc(CCCCCOc2ccc(C3=NCCO3)cc2)s1,EC50,-,VERO,30 µM
NC(=O)CSc1ncnc2c1cnn2CCCCO,EC50,-,E6SM,>400 µg/mL

Repeating the final 9 entries:

SMILES | measure | strain or isolate | cells | result
CC=NC(=N)c1nc(-c2ccc(OC)cc2)n(Cc2ccccc2)n1 | EC50 | - | E6SM | >40 µg/mL
CCCCCOC(=O)C(O)Cn1cnc2c(N)ncnc21 | EC50 | - | Primary rabbit kidney cells | 85 µg/mL
CC(Sc1ncnc2c1cnn2CCCCO)C(N)=O | EC50 | - | E6SM | >400 µg/mL
NC(=O)c1cncc([C@@H]2O[C@H](CO)[C@@H](O)[C@@H]2O)c1 | EC50 | - | E6SM | ≥100 µg/mL
CC=NC(=N)c1nc(-c2ccc(OC)cc2)n(C/C=C/c2ccccc2)n1 | EC50 | - | E6SM | >10 µg/mL
OC[C@H]1O[C@@H](c2ccccc2)[C@H](O)[C@@H]1O | EC50 | - | E6SM | >400 µg/mL
Cn1cc(C(=O)NCc2ccc(Cl)cc2)c(=O)c2cc(CN3CCOCC3)ccc21 | EC50 | - | HFF | 76.2 µM
Clc1ccc(CCCCCOc2ccc(C3=NCCO3)cc2)s1 | EC50 | - | VERO | 30 µM
NC(=O)CSc1ncnc2c1cnn2CCCCO | EC50 | - | E6SM | >400 µg/mL